Results of unrelated studies side by side (data: NIAID ChemDB).

Common to all: tests in culture; agent: HIV-1; cells: CEM + CEM-SS; read-out: EC50

ECn: concentration that inhibits the pathogen or its effect by n%. a–b is a range or a potency band. Blank or dashed fields: not listed here. Conditions beyond the fields shown may differ between rows.

{"SMILES": "Cc1ccnc(SCc2nc3ccccc3o2)n1", "strain or isolate": "RF", "method": "cytopathic effect / XTT", "result": "53.3 µM"}
{"SMILES": "O=c1[nH]cnc2c1nnn2[C@H]1C=CC[C@@H](CO)C1", "strain or isolate": "RF", "method": "cytopathic effect / XTT", "result": ">50 µg/mL"}
{"SMILES": "COCCOCCOCCOCCOCCOCCOCCOCCOCCOCCOCCOCCOCCOCCOCCOCCOCCOCCOCCOCCOCCOCCOCCOCCOCCOCCOCCOCCOCCOCCOCCOCCOCCOCCOCCOCCOCCOCCOCCOCCOCCOCCOCCOCCOC(=O)CCC(=O)O[C@H](CN1C[C@H]2CCCC[C@H]2C[C@H]1C(=O)NC(C)(C)C)[C@H](Cc1ccccc1)NC(=O)[C@H](CC(N)=O)NC(=O)c1ccc2ccccc2n1", "strain or isolate": "LAI", "method": "cytopathic effect / MTT", "result": "0.04 µM"}
{"SMILES": "Cc1cc(OC(F)(F)c2nc3ccccc3o2)cc(C)c1C", "strain or isolate": "RF", "method": "cytopathic effect / XTT", "result": "13 µM"}
{"SMILES": "Nc1nc(=O)n([C@@H]2CC[C@H](CO)O2)cc1F", "result": "0.032 µM"}
{"SMILES": "COc1cc(C)cc2c(-c3c(O)cc(O)c4c3C[C@@H](C)N(C)[C@H]4C)cc(-c3cc(-c4c(O)cc(O)c5c4C[C@@H](C)N(C)[C@H]5C)c4cc(C)cc(OC)c4c3O)c(O)c12", "result": "11.5–13.7 µM"}
{"SMILES": "CC(C)=CCOc1cc(NC(=S)c2ccoc2C)ccc1Cl", "strain or isolate": "3TC-RS (RT-M184I)", "mutations": "RT-M184I", "method": "cytopathic effect / XTT", "result": "0.03 µM"}
{"SMILES": "COc1ccc(/C=C(\\C#N)Sc2ccccc2O)cc1", "strain or isolate": "IIIB", "method": "syncytia", "result": ">20 µg/mL"}
{"SMILES": "CCCCCCCCCCCCCCCC(=O)Nc1ccn([C@H]2CC[C@@H](COP(=O)(O)O[C@H]3C[C@H](n4cc(C)c(=O)[nH]c4=O)O[C@@H]3CO)O2)c(=O)n1", "strain or isolate": "IIIB", "method": "cytopathic effect / XTT", "result": "0.0465 µM"}
{"SMILES": "CCCCCCCCCCCCCCCCCCCCCCCCCCCCCC=C(c1cc(Cl)c(O)c(C(=O)O)c1)c1cc(Cl)c(O)c(C(=O)O)c1", "strain or isolate": "RF", "method": "cytopathic effect", "result": "13 µM"}
{"SMILES": "CC(C)C(NC(=O)OC(C)(C)C)C(=O)O[C@@H](C[C@@H](Cc1ccccc1)C(=O)N[C@H]1c2ccccc2C[C@H]1OC(=O)C(NC(=O)OC(C)(C)C)C(C)C)CN1CCN(Cc2cccnc2)C[C@H]1C(=O)NC(C)(C)C", "strain or isolate": "LAI", "method": "cytopathic effect / MTT", "result": "4.7 µM"}
{"SMILES": "CC(C)CCC[C@@H](C)[C@H]1CC[C@H]2[C@@H]3CC[C@H]4C[C@@H](CCC=C(c5cc(Cl)c(O)c(C(=O)O)c5)c5cc(Cl)c(O)c(C(=O)O)c5)CC[C@]4(C)[C@H]3CC[C@]12C", "strain or isolate": "IIIB", "method": "cytopathic effect", "result": "3 µM"}
{"SMILES": "Nc1nc(Cl)c2ncn([C@H]3C=CC[C@@H](CO)C3)c2n1", "strain or isolate": "RF", "method": "cytopathic effect / XTT", "result": ">50 µg/mL"}
{"SMILES": "N#C/C(=C\\c1ccccc1)Sc1ccccc1O", "strain or isolate": "IIIB", "method": "syncytia", "result": ">4 µg/mL"}
{"SMILES": "CC(C)CCC[C@@H](C)[C@H]1CC[C@H]2[C@]3(C)CC[C@H]4C[C@@H](CCCC(c5cc(Cl)c(O)c(C(=O)O)c5)c5cc(Cl)c(O)c(C(=O)O)c5)CC[C@]4(C)[C@H]3CC[C@@]21C", "strain or isolate": "RF", "method": "cytopathic effect", "result": "20 µM"}
{"SMILES": "CC(C)=CCOc1cc(NC(=S)c2ccsc2C)ccc1Cl", "strain or isolate": "NL4-3", "mutations": "RT-V179D", "method": "p24", "result": "0.006 µM"}
{"SMILES": "C[n+]1c(-c2cccc(C(=O)NCCCCCC(=O)NCCC(=O)N[C@@H](CCCN=C(N)N)C(=O)NCCCNCCCNCC(=O)O)c2)c2cc(N)ccc2c2ccc(N)cc21.O=C(O)C(F)(F)F.O=C(O)C(F)(F)F.O=C(O)C(F)(F)F.[Cl-]", "strain or isolate": "LAI", "method": "RT activity", "result": ">10 µM"}
{"SMILES": "C[C@H](CCCC(c1cc(Cl)c(O)c(C(=O)O)c1)c1cc(Cl)c(O)c(C(=O)O)c1)[C@H]1CC[C@H]2[C@@H]3CC[C@@H]4CCCC[C@]4(C)[C@H]3CC[C@]12C", "strain or isolate": "RF", "method": "cytopathic effect", "result": "28 µM"}
{"SMILES": "O=C1Oc2cc3c(c4cccc1c24)OCN(c1ccccc1)C3", "strain or isolate": "RF", "method": "cytopathic effect / XTT", "result": ">200 µg/mL"}
{"SMILES": "OC[C@@H]1CC=C[C@H](n2nnc3c(Cl)ncnc32)C1", "strain or isolate": "RF", "method": "cytopathic effect / XTT", "result": ">50 µg/mL"}
{"SMILES": "CC(C)CCC[C@@H](C)[C@H]1CC[C@H]2[C@@H]3CC[C@H]4C[C@@H](CCC=C(c5cc(Cl)c(OCc6ccc(C(=O)O)cc6)c(C(=O)O)c5)c5cc(Cl)c(OCc6ccc(C(=O)O)cc6)c(C(=O)O)c5)CC[C@]4(C)[C@H]3CC[C@]12C", "strain or isolate": "RF", "method": "cytopathic effect / XTT", "result": "0.8 µM"}
{"SMILES": "CC(C)CCC[C@@H](C)[C@H]1CC[C@H]2[C@@H]3CC[C@H]4C[C@@H](OP(=O)(O)OCCC=C(c5cc(Cl)c(O)c(C(=O)O)c5)c5cc(Cl)c(O)c(C(=O)O)c5)CC[C@]4(C)[C@H]3CC[C@]12C", "strain or isolate": "RF", "method": "cytopathic effect", "result": ">40 µM"}
{"SMILES": "CCCc1cc(=O)oc2c3c(c4c(c12)OC(C)(C)CC4)O[C@@H](C)[C@H](C)[C@@H]3O", "strain or isolate": "NL4-3", "mutations": "RT-T139I", "method": "XTT", "result": "2.9 µM"}
{"SMILES": "FC(F)(Sc1ccccn1)c1nc2ccccc2o1", "strain or isolate": "RF", "method": "cytopathic effect / XTT", "result": "29.2 µM"}
{"SMILES": "Cc1ccc(C)c(C(C)S(=O)(=O)c2cccc[n+]2[O-])c1", "strain or isolate": "IIIB", "method": "syncytia", "result": "9.5 µg/mL"}
{"SMILES": "CSc1nc(N)cc(=O)n1CCOCP(=O)(O)O", "strain or isolate": "IIIB", "result": ">100 µg/mL"}
{"SMILES": "O=S(=O)(O)Oc1cc2c(ccn2S(=O)(=O)O)c(Cl)c1O", "method": "cytopathic effect / XTT", "result": "10.7 µg/mL"}
{"SMILES": "Nc1ccn([C@H]2CC[C@@H](CO)O2)c(=O)n1", "result": "0.03 µM"}
{"SMILES": "CC1=CC=CN(C)C1SCc1cc(C)ccc1C", "strain or isolate": "IIIB", "method": "syncytia", "result": ">4 µg/mL"}
{"SMILES": "OC[C@@H]1CC=C[C@H](n2cnc3c(Cl)ncnc32)C1", "strain or isolate": "RF", "method": "cytopathic effect / XTT", "result": ">50 µg/mL"}

For reference, 2 entries again:

SMILES,strain or isolate,mutations,method,result
O=C1Oc2cc3c(c4cccc1c24)OCN(c1ccccc1)C3,RF,-,cytopathic effect / XTT,>200 µg/mL
Cc1ccc(C)c(C(C)S(=O)(=O)c2cccc[n+]2[O-])c1,IIIB,-,syncytia,9.5 µg/mL